A mixed list of measured activities; the numbers were collected in NIAID ChemDB.

Common to all: toxicity to cultured cells; cell line: MT-2; read-out: CC50

Conditions beyond the fields shown may differ between rows. CCn is the concentration with n% toxicity to the cells. Blank or dashed fields: not listed here.

compound	read by	result
COc1ccc(N(C)C(=O)[C@H](Cc2ccccc2)NC(=O)c2cc(C(=O)N[C@@H](Cc3ccccc3)C(=O)N(C)c3ccc(OC)cc3)cc(C(C)(C)C)c2)cc1	XTT	33.3 µM
Cc1nn([C@@H]2CO[C@@H](CO)O2)c(=O)[nH]c1=O		>100 µM
CCOC(C(=O)O)c1c(C)nc2sc3c(c2c1-c1ccc(C(F)(F)F)nc1)CCCC3		>20 µM
CCOC(=O)Cc1c(C(C)C)nn(CC(=O)N[C@@H](Cc2ccccc2)C(=O)N(C)c2ccc3c(c2)OCO3)c1C	ATP	>20 µM
N#Cc1cccc(Nc2nnc(Cc3c(Cl)cccc3Cl)o2)c1	MTT	46 µM
Cc1ccc2c(c1)[C@@H](N1CCCC1=O)C[C@@H](c1cccc(N)c1)N2	ATP	>156 µM
CC(=O)Oc1ccc2[nH]cc(C(=O)C(=O)N3CCN(C(=O)c4ccccc4)CC3)c2c1	XTT	>10 µM
Cc1nn([C@H]2CO[C@H](CO)O2)c(=O)[nH]c1=O		>100 µM
NS(=O)(=O)c1ccc(N2C(=O)CSC2c2ccccc2Cl)cc1	MTT	21 µM
O=C(NCc1cccnc1)C(=O)N/N=C\c1ccc(-c2cccc(Cl)c2)o1	XTT	54.24 µM
COc1cccc(OC)c1C1SCC(=O)N1c1ncccc1C	MTT	>25 µM
C#Cc1cc(C)c(Oc2ccc([N+](=O)[O-])c(Nc3ccc(C#N)cc3)n2)c(C)c1	XTT	>405 µM
Nc1nc(Cl)c2ncn([C@H]3C=C[C@@H](CO)C3)c2n1		6.97 µg/mL
CCOC(=O)Cc1c(C)nn(CC(=O)N[C@@H](Cc2ccccc2)C(=O)N(C)c2ccc3c(c2)OCO3)c1CC	ATP	>20 µM
O=C(/C=C/c1cc(O)c(O)c(O)c1)NCC(NC(=O)/C=C/c1cc(O)c(O)c(O)c1)C(=O)O	neutral red	>30 µM
CCOC(=O)Nc1[nH]c2cc(Cl)cc(Cl)c2c1C(C)(O)C(F)(F)F	ATP	>200 µM
Cc1cccnc1N1C(=O)CSC1c1c(C)cccc1C	MTT	≥182 µM
O=C(NCC(NC(=O)c1ccc(O)c(O)c1)C(=O)O)c1ccc(O)c(O)c1	neutral red	>39 µM
O=C(C(=O)N1CCN(C(=O)c2ccccc2)CC1)c1c[nH]c2c(Cl)cccc12	XTT	>10 µM
CSc1ccc(Cc2nn(C(C)(C)C)c(=O)c3ccccc23)cc1	propidium iodide	71.9 µM
Cc1cn([C@H]2C=C[C@@](C)(CO)O2)c(=O)[nH]c1=O		>100 µM
Cc1nc2sc3c(c2c(-c2ccc(C(F)(F)F)nc2)c1C(OC(C)(C)C)C(=O)O)CCCC3		>20 µM
Cn1nc(NS(C)(=O)=O)c2c(Cl)ccc(-n3c([C@H](Cc4cc(F)cc(F)c4)NC(=O)Cn4ccc5ccccc54)nc4nc(-c5ccccc5F)ccc4c3=O)c21	XTT	>0.5 µM
Cc1cc(C#N)cc(C)c1Nc1nnc(Nc2ccc(Cl)cc2)o1	MTT	100 µM
COc1ccc2nc(-c3cccc([N+](=O)[O-])c3)ccc2c1	MTT	122 µM
CCOC(=O)Nc1[nH]c2cccc(Br)c2c1C(C)(O)C(F)(F)F	ATP	23.3 µM
O=C1CSC(c2ccccn2)N1c1ccc(Cl)cn1	MTT	>10 µM
O=C1O/C(=C\c2ccc(Cl)c(Cl)c2)c2cc(Cl)c(Cl)cc21	propidium iodide	>139 µM
Nc1ccn([C@H]2CC[C@@H](CO)O2)c(=O)n1		44 µg/mL
COc1ccc(N(C)C(=O)[C@H](Cc2ccccc2)NC(=O)Cn2c(=O)n(CC(=O)N[C@@H](Cc3ccccc3)C(=O)N(C)c3ccc(OC)cc3)c3cc(NC(C)=O)ccc32)cc1	XTT	100 µM
CCOc1cccc(-c2cc(C(=O)N/N=C/c3ccc(OC)c(CN4CCOCC4)c3)c3ccccc3n2)c1	XTT	40.91 µM
C#C[C@@]1(CO)C=C[C@H](n2cc(C)c(=O)[nH]c2=O)O1		>100 µM
COc1ccc(N(C)C(=O)[C@H](Cc2ccccc2)NC(=O)c2cccc(S(=O)(=O)N[C@@H](Cc3ccccc3)C(=O)N(C)c3ccc(OC)cc3)c2)cc1	XTT	100 µM
Cc1cc(NC(=O)C(=O)NCCN2CCN(C(=O)c3ccccc3F)CC2)ccc1Br	XTT	71.46 µM
Cc1nc2cc(N(C)C(=O)[C@H](Cc3cc(F)cc(F)c3)NC(=O)c3ccc(F)c(C(=O)N[C@@H](Cc4cc(F)cc(F)c4)C(=O)N(C)c4ccc5sc(C)nc5c4)c3)ccc2s1	XTT	100 µM
CCOC(=O)Nc1[nH]c2cc([N+](=O)[O-])ccc2c1C(=O)C(F)(F)F	ATP	>200 µM
COC(=O)C(CCCNC(=O)c1ccc(O)c(O)c1)NC(=O)c1ccc(O)c(O)c1	neutral red	>37 µM
C#CCN(C(=O)[C@H](Cc1ccccc1)NS(=O)(=O)NC(=O)N[C@@H](Cc1ccccc1)C(=O)N(CCC=C)c1ccc(OC)nc1)c1ccc(OC)nc1	XTT	25 µM
Cc1c(CCO)c(CC(C)C)nn1CC(=O)N[C@@H](Cc1ccccc1)C(=O)N(C)c1ccc2c(c1)OCO2	ATP	>20 µM
CN(C(=O)[C@H](Cc1cc(F)cc(F)c1)NS(=O)(=O)CS(=O)(=O)N[C@@H](Cc1cc(F)cc(F)c1)C(=O)N(C)c1ccc2scnc2c1)c1ccc2scnc2c1	XTT	100 µM
CCOC(=O)Nc1[nH]c2cccc(Cl)c2c1C(C)(O)C(F)(F)F	ATP	20.5 µM
O=C(/C=C/c1cc(O)c(O)c(O)c1)NCCC(NC(=O)/C=C/c1cc(O)c(O)c(O)c1)C(=O)O	neutral red	>29 µM
Cc1cc2cc(C#N)cn2c(C)c1Nc1ccnc(Nc2ccc(C#N)cc2)n1	MTT	8.5 µM
O=C(C(=O)N1CCN(C(=O)c2ccc(F)c(F)c2)CC1)c1c[nH]c2ccccc12	XTT	>10 µM
COC(=O)C(CCNC(=O)/C=C/c1cc(O)c(O)c(O)c1)NC(=O)/C=C/c1cc(O)c(O)c(O)c1	neutral red	>69 µM
CCOC(=O)c1cccc2c(C(=O)C(=O)N3CCN(C(=O)c4ccccc4)CC3)c[nH]c12	XTT	>10 µM
COC(=O)c1ccc(Nc2ncc(Cc3c(Cl)cccc3Cl)o2)cc1	MTT	>100 µM
CC(=O)Oc1cc2[nH]cc(C(=O)C(=O)N3CCN(C(=O)c4ccccc4)CC3)c2cc1OC(C)=O	XTT	>10 µM
O=C(Nc1cc(NC(=O)c2ccccc2)cc(-c2nc3ccccc3c(=O)o2)c1)c1ccccc1	XTT	>100 µM
COc1ccc(-c2c(C(OC(C)(C)C)C(=O)O)c(C)nc3sc4c(c23)CCCC4)cn1		>20 µM
Cc1ccc2[nH]cc(C(=O)C(=O)N3CCN(C(=O)c4ccccc4)CC3)c2c1	XTT	>10 µM
CCOC(=O)Nc1[nH]c2cc(Cl)cc(Cl)c2c1C(O)(C(C)C)C(F)(F)F	ATP	28.3 µM
Cc1cc(C)c2c(c1)N[C@H](c1cccc([N+](=O)[O-])c1)C[C@@H]2N1CCCC1=O	ATP	>137 µM
O=C(NCCC(NC(=O)c1cc(O)c(O)c(O)c1)C(=O)O)c1cc(O)c(O)c(O)c1	neutral red	>56 µM
N#Cc1nc(Cc2cccc3ccccc23)oc1NC[C@H]1CCCO1	MTT	37 µM
CCOC(C(=O)O)c1c(C)nc2sc3c(c2c1-c1ccc(OC)nc1)CCCC3		>20 µM
Cn1nc(Cc2ccc(Cl)c(Cl)c2)c2ccccc2c1=O	propidium iodide	>157 µM
CCN(C(=O)[C@H](Cc1cc(F)cc(F)c1)NC(=O)NS(=O)(=O)N[C@@H](Cc1cc(F)cc(F)c1)C(=O)N(CC)c1ccc2oc(=O)n(CC)c2c1)c1ccc2oc(=O)n(CC)c2c1	XTT	50 µM
Cc1cc(C)c2c(c1)N[C@H](c1cccc(N)c1)C[C@@H]2N1CCCC1=O	MTT	>50 µM
Cc1ccc2c(=O)[nH]nc(Cc3ccc(Cl)cc3Cl)c2c1	propidium iodide	79.4 µM
CCc1nn(CCO)c(C)c1CC(=O)N[C@@H](Cc1ccccc1)C(=O)N(C)c1ccc2c(c1)OCO2	ATP	>20 µM
Nc1ncn([C@H]2CO[C@@H](CO)O2)c(=O)n1		32 µM
CCc1c(CCO)c(C)nn1CC(=O)N[C@@H](Cc1ccccc1)C(=O)N(C)c1ccc2c(c1)OCO2	ATP	>20 µM
O=C1CCCN1[C@H]1C[C@@H](c2cccc([N+](=O)[O-])c2)Nc2ccccc21	MTT	>50 µM
Fc1ccc(Nc2ncc(Cc3c(F)cccc3F)o2)cc1	MTT	38 µM
Cc1nn(CC(=O)N[C@@H](Cc2ccccc2)C(=O)N(C)c2ccc3c(c2)OCO3)c(C(C)C)c1CC(=O)O	ATP	>20 µM
C=C[C@@]1(CO)C=C[C@H](n2cc(C)c(=O)[nH]c2=O)O1		>100 µM
CC(c1nnc(Nc2ccc(C#N)cc2)o1)c1c(F)cccc1F	MTT	8.5 µM
Cc1c(CCO)c(C2CC2)nn1CC(=O)N[C@@H](Cc1ccccc1)C(=O)N(C)c1cccc2ncccc12	ATP	>20 µM
CCc1ccc(-c2c(C(OC(C)(C)C)C(=O)O)c(C)nc3sc4c(c23)CCCC4)c(O)c1		>20 µM
COC(=O)C(CCNC(=O)c1ccc(O)c(O)c1)NC(=O)c1ccc(O)c(O)c1	neutral red	>86 µM
CC(C)(C)c1ccc(C(=O)N2CCN(C(=O)C(=O)c3c[nH]c4ccccc34)CC2)cc1	XTT	>10 µM
Cc1ccc2c(=O)n(C)nc(Cc3ccccc3Cl)c2c1	propidium iodide	>167 µM
O=C(NCCCC[C@H](NC(=O)c1ccc(O)c(O)c1)C(=O)O)c1ccc(O)c(O)c1	neutral red	>104 µM
Clc1ccccc1Nc1nnc(Cc2c(Cl)cccc2Cl)o1	MTT	>100 µM
COc1ccc(Cc2n[nH]c(=O)c3cc(Cl)c(Cl)cc23)cc1	propidium iodide	>149 µM
Cc1cc2nc(-c3cccc([N+](=O)[O-])c3)ccc2c(C)c1C	ATP	>189 µM

Repeating the first 5 entries:

COc1ccc(N(C)C(=O)[C@H](Cc2ccccc2)NC(=O)c2cc(C(=O)N[C@@H](Cc3ccccc3)C(=O)N(C)c3ccc(OC)cc3)cc(C(C)(C)C)c2)cc1 ; read by: XTT ; result: 33.3 µM
Cc1nn([C@@H]2CO[C@@H](CO)O2)c(=O)[nH]c1=O ; result: >100 µM
CCOC(C(=O)O)c1c(C)nc2sc3c(c2c1-c1ccc(C(F)(F)F)nc1)CCCC3 ; result: >20 µM
CCOC(=O)Cc1c(C(C)C)nn(CC(=O)N[C@@H](Cc2ccccc2)C(=O)N(C)c2ccc3c(c2)OCO3)c1C ; read by: ATP ; result: >20 µM
N#Cc1cccc(Nc2nnc(Cc3c(Cl)cccc3Cl)o2)c1 ; read by: MTT ; result: 46 µM